Results of unrelated studies side by side (data: NIAID ChemDB).

Common to all: toxicity to cultured cells; endpoint: CC50

CCn: concentration that lowers growth or viability of the cells by n%.

smiles,cell line,read by,value
Cc1cc(NC(=O)c2c(C)c(C(=O)C(=O)NC3(C)CC(O)C3)n(C)c2C2CC2)ccc1F,HepG2,MTT,>30 µM
C/C=C/C(=O)O[C@@]12[C@H](O)[C@@H](C)[C@@]3(O)[C@@H](C=C(CO)C[C@]4(O)C(=O)C(C)=C[C@@H]34)[C@@H]1C2(C)C,C8166,MTT,>200 µM
Cc1cc(C)n(-c2nc3c(c(=O)n2-c2ccc(OC[C@@H](C)O)cc2)C[C@@H](C)N(C(=O)c2ccc(Br)c(C(F)(F)F)c2)C3)n1,HepG2.117,luminescence,>0.5 µM
COC(=O)[C@H](C)NP(=O)(OC[C@H]1C/C1=C/n1cnc2c(=O)[nH]c(N)nc21)Oc1ccccc1,MEF,neutral red,>206 µM
O=C(C(=O)N1CCN(C(=O)c2ccccc2)CC1)c1c[nH]c2c(-n3cccn3)ccnc12,HeLa,trypan blue,>100 µM
Cc1cccc(NC(=O)c2c(C)c(C(=O)C(=O)NC(C)(C)C)n(C)c2C)c1F,HepG2,MTT,>30 µM
CC1=C[C@H]2[C@@]3(O)[C@H](C)[C@@H](OC(=O)/C=C/c4ccccc4)[C@]4(OC(=O)/C=C/c5ccccc5)[C@H]([C@@H]3C=C(CO)C[C@]2(O)C1=O)C4(C)C,C8166,MTT,26.1 µM
CCCc1cc(=O)oc2cc(O)c(C(=O)CC)c(O)c12,CV-1,neutral red,6 µg/mL
CC(C)N(Cc1cccc(OCCCCCC(=O)OC(=O)O)c1)C(=O)c1ccc(-c2cccc(Oc3ccccc3)c2)cc1,RAJI,-,<13.5 µM
NC(=S)Nc1cccc(OCCCCCCOc2ccc(-c3ccccc3)cc2)c1,Ava5-EG(delta4AB)SEAP,MTS,>1 µM
Cc1cc(C)n(-c2nc3c(c(=O)n2-c2ccc(N4CC[C@@H](O)C4)nc2)C[C@@H](C)N(C(=O)c2ccc(Br)c(C(F)(F)F)c2)C3)n1,HepG2.117,luminescence,>0.5 µM
CCOC(=O)COc1ccc(C=O)cc1,HEK 293,-,>20 µM
Cc1cc(C)n(-c2nc3c(c(=O)n2-c2ccc(OCC(N)=O)cc2)C[C@@H](C)N(C(=O)c2ccc(Br)c(C(F)(F)F)c2)C3)n1,HepG2.117,luminescence,>0.5 µM
Nc1ncnc2c1ncn2/C=C1/C[C@@H]1CO,MEF,neutral red,296 µM
NC(=S)Nc1cccc(OCCCCCOc2cccc(C(O)c3ccccc3)c2)c1,Ava5-EG(delta4AB)SEAP,MTS,>1 µM
COC1=CC(=O)C2=C(C1=O)C(/C=C(\C)CCC=C(C)C)Oc1cc(OC)c(O)c(C/C=C(\C)CCC=C(C)C)c12,L6 rat skeletal myoblasts,resazurin,65 µM
COc1cnc(-n2ncc(C)n2)c2[nH]cc(C(=O)C(=O)N3CCN(C(=O)c4ccccc4)CC3)c12,HeLa,trypan blue,>100 µM
CC(=O)N1CC[C@H](NC(=O)C(=O)c2c(C)c(C(=O)Nc3ccc(F)c(C)c3)c(C)n2C)C[C@H]1C,HepG2,MTT,>30 µM
CC(C)(O)[C@@H]1CC[C@@]2(C)CCC[C@@](C)(O)[C@@H]2C1,1A2,XTT,630.7 µM
CCOC(=O)CCCCCOc1cccc(CN(C(=O)c2ccc(-c3cccc(N(C)C)c3)cc2)C(C)C)c1,BJ,-,>20 µM
O=[N+]([O-])c1ccc2c(c1)c(N=NC(=S)Nc1ccc(Cl)cc1)c(O)n2CN1CCOCC1,MDBK,-,17 µg/mL
Cc1cc(C)n(-c2nc3c(c(=O)n2-c2cnc4c(ncn4C)n2)C[C@@H](C)N(C(=O)c2ccc(Br)c(C(F)(F)F)c2)C3)n1,HepG2.117,luminescence,>0.5 µM
C=C1CC[C@H]2C(C)(C)CCC[C@]2(C)[C@H]1CCC1=CC(=O)OC1,1A2,XTT,368.3 µM
Cc1cc(C)n(-c2nc3c(c(=O)n2-c2ccc(OC[C@H](C)O)nc2)C[C@@H](C)N(C(=O)c2ccc(Br)c(C(F)(F)F)c2)C3)n1,HepG2.117,luminescence,>0.5 µM
O=[N+]([O-])c1ccc2c(c1)c(N=NC(=S)Nc1ccccc1)c(O)n2CN1CCCCC1,MDBK,-,20 µg/mL
NC(=S)Nc1cccc(OCCCCCOc2ccc(-c3ccoc3)cc2)c1,Ava5-EG(delta4AB)SEAP,MTS,>1 µM
COc1cnc(-n2cnc(C)c2)c2[nH]cc(C(=O)C(=O)N3CCN(C(=O)c4ccccc4)CC3)c12,HeLa,trypan blue,>100 µM
Cc1cc(C)n(-c2nc3c(c(=O)n2-c2ccc(NC[C@H](C)O)nc2)C[C@@H](C)N(C(=O)c2ccc(Br)c(C(F)(F)F)c2)C3)n1,HepG2.117,luminescence,>0.5 µM
Cc1onc(-c2c(F)cccc2F)c1C(=O)N1CCN(c2c(F)c([N+](=O)[O-])c3c(=O)c(C(=O)O)cn4c3c2OCC4C)CC1,Mammalian Vero cells,MTT,102 µM
CNC(=O)c1ccc(-n2c(-n3nc(C)cc3C)nc3c(c2=O)C[C@@H](C)N(C(=O)c2ccc(Br)c(C(F)(F)F)c2)C3)cc1N,HepG2.117,luminescence,>0.5 µM
CC1COc2c(N3CCN(C(=O)C4COc5ccccc5O4)CC3)c(F)c([N+](=O)[O-])c3c(=O)c(C(=O)O)cn1c23,Mammalian Vero cells,MTT,113 µM
CCOC(=O)CCCCCOc1cccc(CN(C(=O)c2ccc(-c3cccc(C(F)(F)F)c3)cc2)C(C)C)c1,HEK 293,-,>20 µM
CC(=O)Nc1cccc(-c2cc(=O)n(O)c3ncccc23)c1,HeLa,-,<100 µM
CCOC(=O)CCCCCOc1cccc(CN(C(=O)c2ccc(-c3cccc(C#N)c3)cc2)C(C)C)c1,HepG2,-,>20 µM
Cc1nc2cc(OC(F)(F)F)ccc2n1-c1ccc(C(=O)NC2CC2)s1,Kidney epithelial cells,resazurin,>62 µM
Nc1ncnc2c1ncn2/C=C1/C[C@H]1CO,MEF,neutral red,>518 µM
CC/C=C\C/C=C\C/C=C\C/C=C\C/C=C\CCCC(=O)O[C@@H]1[C@@H](C)[C@@]2(O)[C@@H](C=C(COC(C)=O)C[C@]3(O)C(=O)C(C)=C[C@@H]23)[C@@H]2C(C)(C)[C@]12O,C8166,MTT,33.91 µM
CCN(C(=O)C(=O)c1c(C)c(C(=O)Nc2ccc(F)c(C)c2)c(C)n1C)C(C)C,HepG2,MTT,>30 µM
NC(=S)Nc1cccc(OCCCCCOc2ccccc2)c1,Ava5-EG(delta4AB)SEAP,MTS,>1 µM
Cc1cc(NC(=O)c2c(C)c(C(=O)C(=O)N[C@H]3CCCC(F)(F)[C@@H]3O)n(C)c2C)ccc1F,HepG2,MTT,>30 µM
COc1cnc(-c2nnc(C)o2)c2[nH]cc(C(=O)C(=O)N3CCN(C(=O)c4ccccc4)[C@H](C)C3)c12,HeLa,trypan blue,>100 µM
COc1cc(O)c2c(=O)c(O)c(-c3ccc(OC)c(O)c3)oc2c1,1A2,XTT,>757 µM
O=c1c(-c2ccccc2)c(O)c2cc(-c3ccc4ccccc4c3)cnc2n1O,HeLa,-,<100 µM
CCCc1cc(=O)oc2cc(OC(=O)CC)cc(O)c12,CV-1,neutral red,100 µg/mL
Nc1ncn(-c2ncc(F)c3c(C(=O)C(=O)N4CCN(C(=O)c5ccccc5)CC4)c[nH]c23)n1,HeLa,trypan blue,>100 µM
NC(=S)Nc1cccc(OCCCCCOc2cccc3cnccc23)c1,Ava5-EG(delta4AB)SEAP,MTS,>1 µM
CC(C)(O)[C@@H]1CC[C@@]2(C)CCC[C@](C)(O)[C@@H]2C1,1A2,XTT,>520 µM
Cn1ccc(-c2ncc(F)c3c(C(=O)C(=O)N4CCN(C(=O)c5ccccc5)CC4)c[nH]c23)n1,HeLa,trypan blue,≤100 µM
Nc1nc(N)c2ncn(C=C3CC3CO)c2n1,MEF,neutral red,>293 µM
Cc1cc(C)n(-c2nc3c(c(=O)n2-c2cc(F)c4c(c2)ncn4C)C[C@@H](C)N(C(=O)c2ccc(Br)c(C(F)(F)F)c2)C3)n1,HepG2.117,luminescence,>0.5 µM
O=c1cc(N2CCc3ccc(-c4cccnc4)cc3C2)c2cccnc2n1O,HeLa,-,0.17 µM
COc1cnc(-c2ccn(C)n2)c2[nH]cc(C(=O)C(=O)N3CCN(C(=O)c4ccccc4)CC3)c12,HeLa,trypan blue,≤100 µM
CC1COc2c(N3CCN(C(=O)c4ccco4)CC3)c(F)c([N+](=O)[O-])c3c(=O)c(C(=O)O)cn1c23,Vero mammalian cells,MTT,64.25 µM
O=C(C(=O)N1CCN(C(=O)c2ccccc2)CC1)c1c[nH]c2c(-c3cn(-c4ccccc4)nn3)ccnc12,HeLa,trypan blue,>100 µM
O=C(Nc1cc(C(F)(F)F)ccc1N1CCCCC1)c1ccncc1,Huh7/Rep-Feo-2a,MTS,>30 µM
CC(c1ccc(-c2cccc(-c3cc(=O)n(O)c4ncccc34)c2)cc1)N1CCOCC1,HeLa,-,<100 µM
CC1COc2c(N3CCC4(CC3)OCCO4)c(F)c([N+](=O)[O-])c3c(=O)c(C(=O)O)cn1c23,Mammalian Vero cells,MTT,139 µM
CC1=C[C@H]2[C@@]3(O)[C@H](C)[C@@H](OC(=O)/C=C/c4ccccc4)[C@]4(O)[C@H]([C@@H]3C=C(COC(=O)/C=C/c3ccccc3)C[C@]2(O)C1=O)C4(C)C,C8166,MTT,>200 µM
CCc1c(C(=O)Nc2ccc(F)c(C)c2)c(C)c(C(=O)C(=O)NC2(C)CC(O)C2)n1C,HepG2,MTT,>30 µM
CCCc1cc(=O)oc2c(C(=O)CC)c(O)c(C(=O)CC)c(O)c12,CV-1,-,80 µg/mL
CCOC(=O)COc1ccc(CNC(C)C)cc1,HepG2,-,>20 µM
CC1CCN(Cc2cccc(CNc3cc(=O)n(O)c4ncccc34)c2)CC1,HeLa,-,<100 µM
Cc1cc(C=O)cc(C)c1Oc1cc(Nc2ccc(C#N)cc2)nc2ccccc12,HCC-S102,MTT,74 µM
C[C@@]1(O)[C@H](O)[C@@H](CO)O[C@H]1n1cnc2c(N)ncnc21,HBI10A,-,100 µM
NC(=S)Nc1cccc(NCCCCCCCc2ccccc2)c1,Ava5-EG(delta4AB)SEAP,MTS,>1 µM
CCCc1cc(=O)oc2cc(OCC(C)(C)C(=O)OC)c3c(c12)OC(C)(C)C=C3,CV-1,-,20 µg/mL
C[C@@H]1CN(C(=O)C(=O)c2c[nH]c3c(-n4nnc5ccccc54)cc(Cl)nc23)CCN1C(=O)c1ccccc1,HeLa,trypan blue,>100 µM
CC1S/C(=N/N=C2\C(=O)Nc3ccc([N+](=O)[O-])cc32)N(c2ccc(Br)cc2)C1=O,MDBK,-,>50 µg/mL
Cc1cc(NC(=O)c2c(C)c(C(=O)C(=O)NC3CCC(OCC(=O)NCCOCCOCCOCCOCCOCCOCCOCCNC(=O)CCCCC4SCC5NC(=O)NC54)CC3)n(C)c2C)ccc1F,PCR,MTT,>30 µM
CCCc1cc(=O)oc2cc(OC(=O)C(C)(C)C)cc(OC(=O)C(C)(C)C)c12,CV-1,neutral red,10 µg/mL
Cc1cc(NC(=O)c2c(C)c(C(=O)C(=O)NC3(C)CC(O)C3)n(C)c2-c2nccs2)ccc1F,HepG2,MTT,>30 µM
COc1cc(F)cc(-c2ccc(C(=O)N(Cc3cccc(OCCCCCC(=O)OC(=O)O)c3)C(C)C)cc2)c1,HepG2,-,>20 µM
NC(=S)Nc1cccc(NCCCCCCc2ccccc2)c1,Ava5-EG(delta4AB)SEAP,MTS,>1 µM
C[C@H]1COc2c(N3CCC(O)(c4ccc(Cl)cc4)CC3)c(F)c([N+](=O)[O-])c3c(=O)c(C(=O)O)cn1c23,Mammalian Vero cells,MTT,60.35 µM

Conditions beyond the fields shown may differ between rows. Blank or dashed fields: not listed here.